# Laboratory results: PubChem BioAssay AID624099 (ICCB-Longwood, 2012)
# Test: 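Human genes that papillomavirus E2 requires to repress the HPV18 LCR promoter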 (primary screen)
# Cells: human C33A cervical carcinoma cells (HPV-negative) stably expressing BPV1 E2 and an HPV18 LCR luciferase reporter
# Reagents: siRNA pool against human genes, 40 nM
# Duration: 72 h
# Measured: 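Per-well luciferase luminescence, z-scored on each plate against the plate mean and SD with control wells left out, then averaged across three replicate plates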
# Reading the numbers: mean z-score and z-score: higher = stronger reporter signal, weaker E2 silencing
# Call rule: 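Hit if mean z-score reaches 2 and two or more of three replicate z-scores also reach 2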
# In all, the deposit lists about 21,000 reagents; below is an unselected part. 497 of all reagents (2.4%) were called active. 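Higher z means weaker E2 silencing; only reporter increases were scored, and knock-downs that hurt cell survival may mask genuine repressor factors.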 No sequences are given here.
Target gene,mean z-score,"z-score, replicate A","z-score, replicate B","z-score, replicate C",Outcome
ANGPTL1 (GeneID 9068),-0.26,-0.25,-0.18,-0.36,inactive
YES1 (GeneID 7525),-0.53,-0.45,-0.84,-0.29,inactive
STARD7 (GeneID 56910),0.55,0.25,0.58,0.82,inactive
APAF1 (GeneID 317),0.21,0.4,0.03,0.19,inactive
POTEG (GeneID 404785),-0.25,-0.82,0.31,-0.25,inactive
CARMIL3 (GeneID 90668),-1.05,-1.45,-0.83,-0.89,inactive
NGF (GeneID 4803),-1.2,-1.58,-0.95,-1.06,inactive
ABCB10 (GeneID 23456),-0.89,-0.98,-0.75,-0.93,inactive
NHLRC1 (GeneID 378884),-0.11,0.42,-0.34,-0.4,inactive
PPP1R3E (GeneID 90673),-0.14,0.08,-0.21,-0.3,inactive
LGALS9 (GeneID 3965),-1.48,-1.73,-1.28,-1.44,inactive
RRAS2 (GeneID 22800),-0.68,-0.95,-0.73,-0.38,inactive
ERCC3 (GeneID 2071),-1.22,-1.34,-1.24,-1.07,inactive
H1-9P (GeneID 373861),0.49,0.31,0.69,0.47,inactive

No new results follow: 3 of the entries above.
Target gene,mean z-score,"z-score, replicate A","z-score, replicate B","z-score, replicate C",Outcome
ABCB10 (GeneID 23456),-0.89,-0.98,-0.75,-0.93,inactive
NHLRC1 (GeneID 378884),-0.11,0.42,-0.34,-0.4,inactive
PPP1R3E (GeneID 90673),-0.14,0.08,-0.21,-0.3,inactive

Next records follow.
Target gene,mean z-score,"z-score, replicate A","z-score, replicate B","z-score, replicate C",Outcome
ADCY10P1 (GeneID 221442),-1.53,-1.33,-1.77,-1.5,inactive
ABCF3 (GeneID 55324),0.27,0.79,-0.03,0.07,inactive
PTMA (GeneID 5757),0.34,0.48,0.12,0.43,inactive
TOX (GeneID 9760),-1.41,-1.46,-1.16,-1.61,inactive
NEDD4 (GeneID 4734),0.28,0.02,0.57,0.24,inactive
PPIP5K1 (GeneID 9677),0.75,0.98,0.56,0.72,inactive
GSS (GeneID 2937),0.1,0.2,0.15,-0.05,inactive
PARP2 (GeneID 10038),-0.51,-0.51,-0.43,-0.6,inactive
NPPC (GeneID 4880),0.46,0.54,0.7,0.12,inactive
